Data reported in ChEMBL document CHEMBL1154414, “In vitro and in vivo activities of T-705 against arenavirus and bunyavirus infections” (Antimicrob Agents Chemother, 2007).

Tested on: Punta Toro virus
Experiment: Antiviral activity against 5000 PFU Punta Toro virus Adames infected C57BL/6 mouse assessed as survival at 10 mg/kg, po twice daily for 5 days administered 24 hrs post viral challenge
Type: functional

Molecule `NC(=O)c1ncn([C@@H]2O[C@H](CO)[C@@H](O)[C@H]2O)n1` [RIBAVIRIN] has a Survival of 10%.
